A mixed list of measured activities; the numbers were collected in NIAID ChemDB.

Common to all: tests in culture; organism: Rhinovirus; measure: EC50

ECn is the concentration giving n% inhibition of infection, replication or growth.

CCOC(=O)c1ccc(OCCCCOc2ccc(-c3snc(SC)c3C#N)cc2)cc1 ; strain: Serotype 72 (group A) ; cell line: HELA-OHIO ; method: cytopathic effect ; value: >2 µM
CN(C)c1nc(C(F)(F)F)nc2c1ncn2Cc1ccc(Cl)c(Cl)c1 ; strain: Serotype 3 ; cell line: M-HELA ; method: plaque count ; value: >8 µM
Cc1cc(CCCOc2c(C)cc(-c3noc(C(F)(F)F)n3)cc2C)on1 ; strain: Isolate 4 ; cell line: OHIO HELA-I ; method: cytopathic effect / visual reading ; value: 0.08 µg/mL
Cc1c(-c2ccccc2)n(-c2cccc(F)c2)c2ccc(C(C)C)cc2c1=O ; strain: 31/41F ; cell line: HELA-OHIO ; method: cytopathic effect ; value: 0.045 µg/mL
CCOC(=O)c1ccc(OCCCOc2ccc(-c3snc(SC)c3C#N)cc2)cc1 ; strain: Serotype 89 (group B) ; cell line: HELA-OHIO ; method: cytopathic effect ; value: >2 µM
COc1ccc(Cn2cnc3c(N(C)C)nc(C(F)(F)F)nc32)cc1C ; strain: Serotype 3 ; cell line: M-HELA ; method: plaque count ; value: >8 µM
CCn1c2c(c(=O)c3cc(C(C)C)ccc31)Cc1ccccc1-2 ; strain: 41/56110 ; cell line: HELA-OHIO ; method: cytopathic effect ; value: 0.2 µg/mL
CCO/N=C/c1ccc(OCCC2CCN(c3ccc(Cl)nn3)CC2)cc1 ; strain: SF-1662 (ICAM-1 receptor group 92) ; cell line: KB ; method: neutral red ; value: 0.002 µM
Fc1cccc(Nc2nc(C(F)(F)F)nc3c2ncn3Cc2ccc(C(F)(F)F)cc2)c1 ; strain: Serotype 5 ; cell line: M-HELA ; method: plaque count ; value: >40 µM
CSc1nsc(-c2ccc(OS(=O)(=O)c3ccc(C)cc3)cc2)c1C#N ; strain: Serotype 59 (group B) ; cell line: HELA-OHIO ; method: cytopathic effect ; value: >25 µM
CN(C)c1nc(C(F)(F)F)nc2c1ncn2Cc1ccccc1Cl ; strain: Serotype 30 ; cell line: M-HELA ; method: plaque count ; value: >8 µM
Fc1cccc(Cn2cnc3c(Nc4cccc(F)c4)nc(C(F)(F)F)nc32)c1 ; strain: Serotype 41 ; cell line: M-HELA ; method: plaque count ; value: 5.6 µM
CSc1nsc(-c2ccc(OCCOc3ccccc3)cc2)c1C#N ; strain: Serotype 70 (group A) ; cell line: HELA-OHIO ; method: cytopathic effect ; value: >20 µM
CN(C)c1nc(C(F)(F)F)nc2c1ncn2Cc1ccc(C(F)(F)F)cc1 ; strain: Serotype 3 ; cell line: M-HELA ; method: plaque count ; value: >8 µM
CSc1nsc(-c2ccc(OC(C)(C)C)cc2)c1C#N ; strain: Serotype 70 (group A) ; cell line: HELA-OHIO ; method: cytopathic effect ; value: >40 µM
CSc1nsc(-c2ccc(OCCCOc3ccc(C#N)cc3)cc2)c1C#N ; strain: Serotype 89 (group B) ; cell line: HELA-OHIO ; method: cytopathic effect ; value: >2 µM
CC(C)Oc1ccc(Cn2cnc3c(N(C)C)nc(C(F)(F)F)nc32)cc1 ; strain: TYPE 1B ; cell line: M-HELA ; method: plaque count ; value: 1 µM
CSc1nsc(-c2ccc(OCCOc3ccc(C#N)cc3)cc2)c1C#N ; strain: Serotype 41 (group B) ; cell line: HELA-OHIO ; method: cytopathic effect ; value: >2 µM
Cc1c(-c2ccccc2)n(-c2ccc(F)cc2)c2ccc(C(C)C)cc2c1=O ; strain: 1A/E28 ; cell line: HELA-OHIO ; method: cytopathic effect ; value: >2 µg/mL
CSc1nsc(-c2ccc(OCc3ccccc3)cc2)c1C#N ; strain: Serotype 29 (group B) ; cell line: HELA-OHIO ; method: cytopathic effect ; value: 20 µM
Cc1ccccc1Cn1cnc2c(N(C)C)nc(C(F)(F)F)nc21 ; strain: Serotype 15 ; cell line: M-HELA ; method: plaque count ; value: >8 µM
CSc1nsc(-c2ccccc2)c1C#N ; strain: Serotype 39 (group B) ; cell line: HELA-OHIO ; method: cytopathic effect ; value: >80 µM
CN(C)c1nc(C(F)(F)F)nc2c1ncn2Cc1ccc(Cl)c(NC=O)c1 ; strain: Serotype 21 ; cell line: M-HELA ; method: plaque count ; value: >8 µM
CCOC(=O)c1ccc(OCCC2CCN(c3ccc(C)nn3)CC2)cc1 ; strain: Serotype 72 (group A) ; cell line: HELA-OHIO ; method: cytopathic effect ; value: 0.4 µM

The first 2 rows once more:

| smiles | strain | cell line | method | value |
|---|---|---|---|---|
| CCOC(=O)c1ccc(OCCCCOc2ccc(-c3snc(SC)c3C#N)cc2)cc1 | Serotype 72 (group A) | HELA-OHIO | cytopathic effect | >2 µM |
| CN(C)c1nc(C(F)(F)F)nc2c1ncn2Cc1ccc(Cl)c(Cl)c1 | Serotype 3 | M-HELA | plaque count | >8 µM |

Rows are shuffled and stem from different studies.